# From PubChem BioAssay AID624173 (National Center for Advancing Translational Sciences (NCATS), 2012)
# The entries are a selection whose mix differs from that of the whole data set. Calls of active or inactive are those of the source. The call rests on the fitted dose curve; in most records, active means well fitted inhibition curve with a large enough effect; inconclusive means small, poorly fitted or top-dose-only effect; inactive means flat fitted curve, though single readings scatter.
# Molecular target: pyruvate kinase (Trypanosoma brucei) (UniProt Q57TT1)
# Experiment: qHTS of Trypanosoma Brucei Inhibitors; further: nearly all actives have a fitted effect of over 50% in size
# Conditions: TbPYK enzyme, Kinase-Glo Plus ATP luminescence, 45 min; at 76.8 µM (top of the series) unless noted
# On the % scale 0 is the no-effect control and ±100 the full control effect.
row,Structure (SMILES),"activity, negative = inhibition"
1,CP(=S)(Nn1cnnc1)Oc1ccccc1 (stereo not drawn),inactive: -5.36%
2,CP(=O)(Nc1ccccc1Br)Oc1ccccc1 (stereo not drawn),inactive: 0.01%
3,COc1ccccc1OP(C)(=O)Nc1ccccc1 (stereo not drawn),inactive: 0.629%
4,CP(=O)(Oc1ccccc1)OC(c1ccccc1)C(F)(F)F (stereo not drawn),inactive: -0.911%
5,Cc1cccc(C)c1OP(C)(=O)Nc1ccc(SC(F)(F)F)cc1 (stereo not drawn),inactive: -1.52%
6,CP(=O)(Nc1ccc(SC(F)(F)F)cc1)Oc1ccc(Cl)cc1 (stereo not drawn),inactive: 2.14%
7,Cc1cc(C)cc(OP(C)(=O)Nc2ccc(SC(F)(F)F)cc2)c1 (stereo not drawn),inactive: 5.38%
8,CP(=O)(NC(=O)Nc1ccccc1)Oc1ccccc1 (stereo not drawn),inactive: 5.18%
9,CCc1ccc(OP(C)(=O)N2CCN(c3ccc([N+](=O)[O-])cc3)CC2)cc1 (stereo not drawn),inactive: -3.12%
10,CN(C)CCS,inactive: -7.51%
11,CCOC(=O)c1ccc(NP(C)(=O)Oc2ccc(OC)cc2)cc1 (stereo not drawn),inactive: -2.05%
12,O=[N+]([O-])c1cc([N+](=O)[O-])c(O)c([N+](=O)[O-])c1.c1ccc(Oc2ccncc2)cc1,inactive: 3.68%
13,CCOP(C)(=S)SCC(=O)NC(C)C(=O)O (stereo not drawn),inactive: 1.48%
14,CP(=O)(Nc1ccccn1)Oc1ccc(Cl)cc1 (stereo not drawn),inactive: 4.11%
15,CCN(CC)CCCOC(=O)C(O)(c1ccccc1)c1ccccc1,inactive: -4.17%
16,COc1ccccc1-c1ccccn1.O=[N+]([O-])c1cc([N+](=O)[O-])c(O)c([N+](=O)[O-])c1,inactive: 3.09%
17,O=[N+]([O-])c1cc([N+](=O)[O-])c(Nc2cccnc2)c([N+](=O)[O-])c1,inactive: -1.23%
18,O=[N+]([O-])c1ccc2c(c1)C=Nc1ccccc1O2,inactive: -7.49%
19,Cc1cccc(C)c1OP(C)(N)=O (stereo not drawn),inactive: 1.15%
20,CC(C)(C)c1ccc(OP(C)(=O)Nc2ccc(SC(F)(F)F)cc2)cc1 (stereo not drawn),inactive: -7.2%
21,Cc1ccc(NP(C)(=O)Oc2ccccc2)c(C)c1 (stereo not drawn),inactive: 1.59%
22,COc1ccccc1OP(C)(=O)Nc1ccc(C)cc1 (stereo not drawn),inactive: 3.78%
23,CCOC(=O)c1ccc(NP(C)(=O)Oc2ccccc2)cc1 (stereo not drawn),inactive: -5.76%
24,Cc1cc(C)cc(OP(C)(N)=O)c1 (stereo not drawn),inactive: 5.4%

row,Structure (SMILES),"activity, negative = inhibition"
1,COc1ccc(OP(C)(=O)Nc2cccc(F)c2)cc1 (stereo not drawn),inactive: 7.64%
2,COc1ccccc1OP(C)(=O)Nc1cc(Cl)ccc1C (stereo not drawn),inactive: -8.19%
3,CC1=NCCc2c1[nH]c1ccccc21.O=[N+]([O-])c1cc([N+](=O)[O-])c(O)c([N+](=O)[O-])c1,inactive: -12.8%
4,COc1ccccc1OP(C)(=O)Nc1cccc(Br)c1 (stereo not drawn),inactive: 7.41%
5,CCOC(=O)c1ccc(NP(C)(=O)Oc2cc(C)cc(C)c2)cc1 (stereo not drawn),inactive: 7.12%
6,Cc1cc(C)cc(OP(C)(=O)Nc2ccc(C)cc2C)c1 (stereo not drawn),inactive: 0.608%
7,Cc1ccc(C)c(NP(C)(=O)Oc2ccccc2)c1 (stereo not drawn),inactive: -12.9%
8,Cc1cc(C)cc(OP(C)(=O)Nc2ccccn2)c1 (stereo not drawn),inactive: 0%
9,CP(=O)(Nc1cccc(Br)c1)Oc1ccccc1 (stereo not drawn),inactive: 0.631%
10,O=[N+]([O-])c1cc([N+](=O)[O-])c(-n2nnc3ccccc32)c([N+](=O)[O-])c1,inactive: -6.21%
11,CC(C)N(CCCl)C(C)C,inactive: -4.38%
12,CN(Cc1cccnc1)C(=O)COc1ccc(Cl)c(Cl)c1.O=[N+]([O-])c1cc([N+](=O)[O-])c(O)c([N+](=O)[O-])c1,inactive: 3.54%
13,O=[N+]([O-])c1cc([N+](=O)[O-])c(-c2cnn(-c3ccccc3)c2)c([N+](=O)[O-])c1,inactive: 1.04%
14,CC1=C2N=C(C=C3N=C(C(C)=C4[N-][C@@](C)([C@@H]5N=C1[C@](C)(CCC(=O)NC[C@@H](C)OP(=O)([O-])O[C@H]1[C@@H](O)[C@@H](n6cnc7cc(C)c(C)cc76)O[C@@H]1CO)[C@H]5CC(N)=O)[C@@](C)(CC(N)=O)[C@@H]4CCC(N)=O)[C@@](C)(CC(N)=O)[C@@H]3CCC(N)=O)C(C)(C)[C@@H]2CCC(N)=O.[C-]#N.[Co+3],inactive: -1.78%
15,O=[N+]([O-])c1cc([N+](=O)[O-])c(Nc2nnnn2CCO)c([N+](=O)[O-])c1,inactive: -3.56%
16,COc1ccccc1OP(C)(=O)Nc1c(C)cccc1C (stereo not drawn),inactive: -1.54%
17,CN1CCCCC1COC(=O)C1(O)c2ccccc2CCc2ccccc21 (stereo not drawn),inactive: -6.13%
18,CCCOc1ccc(NP(C)(=O)Oc2ccc(Cl)cc2)cc1 (stereo not drawn),inactive: -1.94%
19,CP(=O)(Nc1ccc(SC(F)(F)F)cc1)Oc1ccccc1 (stereo not drawn),inactive: -4.1%
20,CN(C)CCOC(=O)C(O)(c1ccccc1)C1CCCCC1 (stereo not drawn),inactive: -9.54%
21,O=[N+]([O-])c1ccc(OP2(=O)COCCO2)cc1 (stereo not drawn),inactive: 6.22%
22,Cc1cc(-c2cccc3ccccc23)c(C)cn1.O=[N+]([O-])c1cc([N+](=O)[O-])c(O)c([N+](=O)[O-])c1,inactive: -0.743%
23,Cc1c(C(c2ccc3c(c2)OCO3)c2c(C)n(C)n(-c3ccccc3)c2=O)c(=O)n(-c2ccccc2)n1C.O=[N+]([O-])c1cc([N+](=O)[O-])c(O)c([N+](=O)[O-])c1,inactive: 35.9%
24,CP(=O)(Nc1ccc(SC(F)(F)F)cc1)Oc1ccc(F)cc1 (stereo not drawn),inactive: -17.2%

row,Structure (SMILES),"activity, negative = inhibition"
1,CCOP(C)(=S)SCC(=O)NC(C)(CC)C(=O)O (stereo not drawn),inactive: -1.92%
2,CP(=O)(Nc1ccc2c(c1)OCCO2)Oc1ccccc1 (stereo not drawn),inactive: 0.197%
3,Cc1ccccc1NP(C)(=O)Nc1ccccc1C,inactive: 1.96%
4,O=[N+]([O-])c1cc([N+](=O)[O-])c(C(F)(F)F)c([N+](=O)[O-])c1O,inactive: 1.31%
5,CP(=O)(Nc1ccccc1F)Oc1ccccc1 (stereo not drawn),inactive: -11%
6,CC(C)c1ccc(OP(C)(=O)Nc2ccc(SC(F)(F)F)cc2)cc1 (stereo not drawn),inactive: 2.83%
7,O=C(OCCN1CCN(CCOCc2ccccc2)CC1)C(O)(c1ccccc1)c1ccccc1,inactive: -0.542%
8,CCOP(=O)(CC)Oc1ccc([N+](=O)[O-])cc1 (stereo not drawn),inactive: 0%
9,Cc1cccc([N+](=O)[O-])c1[N+](=O)[O-],inactive: -10.7% [at 157 µM]
10,CCOC(=O)c1ccc(NP(C)(=O)Oc2ccc(F)cc2)cc1 (stereo not drawn),inactive: -10.1%
11,Cc1c([N+](=O)[O-])cc([N+](=O)[O-])c(Br)c1[N+](=O)[O-],inactive: -0.214%
12,CCN(CC)CCCOC(=O)C(O)(c1ccccc1)C1CCCCC1 (stereo not drawn),inactive: -7.26%
13,CP(=O)(Nc1ccccc1)Oc1ccc(F)cc1 (stereo not drawn),inactive: -0.491%
14,CCCCCOc1ccc(NP(C)(=O)Oc2ccc(Cl)cc2Cl)cc1 (stereo not drawn),inactive: -3.96%
15,Cc1cc(C)cc(OP(C)(=O)Nc2cccc(C(F)(F)F)c2)c1 (stereo not drawn),inactive: 2.79%
16,COc1ccccc1OP(C)(=O)Nc1ccc(C)c(C)c1 (stereo not drawn),inactive: 0.35%
17,COc1ccc(OP(C)(=O)Nc2ccccc2Br)cc1 (stereo not drawn),inactive: 0.639%
18,CP(=O)(Nc1ccc(Cl)cc1Cl)Oc1ccccc1 (stereo not drawn),inactive: -1.78%
19,CCCCCCCCCCCCCCCC1C[N+](C)(C)CCOP(C)(=O)O1 (stereo not drawn),inactive: -5.38%
20,CP(=O)(OCCOc1ccccc1)OCCOc1ccccc1,inactive: 5.49%
21,COc1ccccc1OP(C)(=O)Nc1ccc(Br)cc1 (stereo not drawn),inactive: 4.53%
22,COc1ccc(OP(C)(=O)Nc2ccccn2)cc1 (stereo not drawn),inactive: -2.44%
23,CN(C)CCOC(=O)C(O)(c1ccccc1)C1CCCC1 (stereo not drawn),inactive: 1.99%
24,Cc1c(NP(C)(=O)Oc2ccc(C(C)C)cc2)c(=O)n(-c2ccccc2)n1C (stereo not drawn),inactive: 9.49%

row,Structure (SMILES),"activity, negative = inhibition"
1,O=[N+]([O-])c1cc([N+](=O)[O-])c(Nc2ccccn2)c([N+](=O)[O-])c1,inactive: 1.7%
2,COc1ccccc1OP(C)(=O)Nc1ccc(C)cc1C (stereo not drawn),inactive: -3.53%
3,CP(=O)(Nc1ccccn1)Oc1ccccc1 (stereo not drawn),inactive: -2.07%
4,CCc1ccc(OP(C)(=O)O)cc1,inactive: 2.18%
5,COc1ccc(OP(C)(=O)Nc2ccc(Br)cc2)cc1 (stereo not drawn),inactive: 1.8%
6,CCN(CC)CC(O)COC(=O)C(O)(c1ccccc1)C1CCCCC1 (stereo not drawn),inactive: 3.61%
7,N#[O+].[C-]#N.[C-]#N.[C-]#N.[C-]#N.[C-]#N.[Fe+2].[Na+].[Na+],inactive: -1.64%
8,OCCSCCO,inactive: -7.9%
9,O=C(OCCCN1CCCC1)C(O)(c1ccccc1)C1CCCCC1 (stereo not drawn),inactive: 1.82%
10,COc1ccccc1OP(C)(=O)Nc1c(C)n(C)n(-c2ccccc2)c1=O (stereo not drawn),inactive: -0.779%
11,CCc1ccc(OP(C)(=O)Nc2cccnc2)cc1 (stereo not drawn),inactive: -0.798%
12,CP(=O)(Oc1ccccc1)N1CCOC1=O (stereo not drawn),inactive: -2.71%
13,COc1ccccc1OP(C)(=O)Nc1ccccc1Br (stereo not drawn),inactive: 5.57%
14,CC(C)(C)c1ccc(OP(C)(=O)O)cc1,inactive: 13.3%
15,CP(=O)(Nc1ccc(Cl)cc1)Oc1ccc(F)cc1 (stereo not drawn),inactive: -10.7%
16,CN(C)C(=O)c1c([N+](=O)[O-])cc([N+](=O)[O-])cc1[N+](=O)[O-],inactive: -20.1%
17,Nc1ccc2c(ccc3cccnc32)n1.O=[N+]([O-])c1cc([N+](=O)[O-])c(O)c([N+](=O)[O-])c1,inactive: 1.33%
18,CCOC(=O)c1ccc(NP(C)(=O)Oc2ccc(Cl)cc2)cc1 (stereo not drawn),inactive: -7.02%
19,CP(=O)(OC12CC3CC(CC(C3)C1)C2)OC12CC3CC(CC(C3)C1)C2,inactive: -1.01%
20,CC(C)OP(=O)(F)OC(C)C,inactive: 2.4%
21,C/C1=C2N=C(/C=C3N=C(/C(C)=C4\[N-][C@@](C)([C@H]5N=C1[C@@](C)(CCC(=O)NC[C@H](C)OP(=O)([O-])O[C@@H]1[C@H](O)[C@H](n6cnc7cc(C)c(C)cc76)O[C@@H]1CO)[C@@H]5CC(N)=O)[C@](C)(CC(N)=O)[C@H]4CCC(N)=O)[C@@](C)(CC(N)=O)[C@@H]\3CCC(N)=O)C(C)(C)[C@@H]/2CCC(N)=O.[C-]#N.[Co+3],inactive: -7.9% [at 33.2 µM]
